Compound potency records, mixed from different reports. Data source: NIAID ChemDB in PubChem.

Shared fields: tests in culture; agent: Mycobacterium tuberculosis

Blank or dashed fields: not listed here.

SMILES	cell line	changes	strain	endpoint	method	tested at	result
CCOC(=O)C(Cc1ccccc1)NP(=O)(CCC(=O)N1C[C@H](OCC(O)P(=O)(NC(Cc2ccccc2)C(=O)OCC)NC(Cc2ccccc2)C(=O)OCC)[C@H](n2cnc3c(=O)[nH]c(N)nc32)C1)NC(Cc1ccccc1)C(=O)OCC			H37Ra	MIC90	resazurin / fluorescence		20 µM
Brc1ccc2nc(CCC3CCCCC3)[nH]c2c1		6C MmpL3 (G253E)	H37Rv	MIC90	visual reading / absorbance		22.8 µM
COc1ccc(N=Nc2c(C)c(C#N)c(=S)n([C@@H]3O[C@H](CO)[C@H](O)[C@H](O)[C@H]3O)c2C)cc1			H37Rv	inhibition	resazurin	6.25 µg/mL	15%
CO[C@H]1/C=C/O[C@@]2(C)Oc3c(C)c(O)c4c(O)c(c(/C=N/N5CCN(C)CC5)c(O)c4c3C2=O)NC(=O)/C(C)=C\C=C\[C@H](C)[C@H](O)[C@@H](C)[C@@H](O)[C@@H](C)[C@H](OC(C)=O)[C@@H]1C			H37Rv	MIC			2.5 µg/mL
O=[N+]([O-])c1ccccc1S(=O)(=O)c1ccc(Cl)cc1			H37Rv	MIC bound	resazurin		>6.25 µg/mL
O=C1NC(=NCc2ccccc2)N/C1=C\c1ccc(Cl)cc1	VERO		H37Rv	inhibition	resazurin	12.5 µg/mL	97%
CC[C@@H](CO)NCCN[C@@H](CC)CO			H37Ra	MIC			1.88 µg/mL
COc1cc(-c2nc(N)nc(N)n2)ccc1OCc1ccc(F)cc1			H37Rv	MIC	resazurin		3.39 µM
C=C(CC[C@@H](C)[C@H]1CC[C@@H]2[C@H]3[C@@H](OC(C)=O)C=C4C[C@@H](O)CC[C@]4(CO)[C@@H]3CC[C@@]21C)C(C)C				MIC			12.5 µg/mL
COc1cc(C2=NN(C(=O)COc3ccc4ccccc4c3)[C@H](c3ccc(O)cc3)C2)c(C)cc1OCC(=O)O			H37Rv	inhibition		6.25 µg/mL	61%
COc1ccc(-c2nc3ccc(Cl)cc3[nH]2)cc1OC			H37Rv	MIC	radiometric		>500 µM
Nc1sc2c(c1C(=O)O)CCCC2			H37Rv	MIC	resazurin		100 µg/mL
Cc1nnn(NC(=O)c2ccccc2)c1C			H37Rv	MIC bound	BACTEC		>12.5 µg/mL
CCOC(=O)c1ccc(-c2ccc(C)cc2)nc1C			H37Rv	MIC			>25 µg/mL
CC(Oc1ccc(-c2nc(N)nc(N)n2)cc1)c1ccc(Br)cc1			H37Rv	MIC	resazurin		56.47 µM
O=C(Nc1cccc2ccccc12)C(=S)Nc1ccccc1O			H37Rv	MIC			37 µM
CCOC(=O)c1c(NC(=O)c2c(F)c(F)c(F)c(F)c2F)sc2c1CCOC2		rpoB S522L mutant	H37Rv	EC90	turbidity		0.27 µM
CO[C@H]1/C=C/O[C@@]2(C)Oc3c(C)c(O)c4c(O)c(c(/C=N/N5CCN(C)CC5)c(O)c4c3C2=O)NC(=O)/C(C)=C\C=C\[C@H](C)[C@H](O)[C@@H](C)[C@@H](O)[C@@H](C)[C@H](OC(C)=O)[C@@H]1C			22 strains	MIC90			100 µg/mL
O=[N+]([O-])c1nccn1CCCNc1ccnc2cc(Cl)ccc12			H37Rv	MBC			3.1–18.4 µg/mL
O=C1NC(Nc2ccc(Cl)cc2)=N/C1=C\c1ccc(Cl)cc1Cl			H37Rv	inhibition		12.5 µg/mL	100%
CCCc1c(C(=O)OCC)[nH]c(-c2ccc(-c3[nH]c(C(=O)OCC)c(CCC)c3C(=O)OCC)o2)c1C(=O)OCC			H37Rv	MIC bound	BACTEC		>12.5 µg/mL
CCN1CCc2c(sc(NC(=O)c3c(F)c(F)c(F)c(F)c3F)c2C#N)C1			ATCC 35822	EC50	turbidity		7.1 µM
O=C(Nc1ccc(C2=NCCCN2)cc1)c1ccc(C(=O)Nc2ccc(C3=NCCCN3)cc2)nc1			PAS-R	MIC			6.3 µg/mL
O=C1NC(NNC(=O)c2ccncc2)=N/C1=C\c1cccc(Cl)c1	VERO		H37Rv	MIC	resazurin		0.8 µg/mL
Cc1ccc(-c2ccc3c(n2)CCC(C)(C)C3=O)cc1			H37Rv	MIC			>25 µg/mL
N=C(N)CCNC(=O)C1CCC(N)=N1			H37Rv	inhibition	BACTEC	12.8 µg/mL	18%
CCOC(=O)c1c(NC(C)=O)sc2c1CCN(C(=O)OC(C)(C)C)C2			H37Rv	MIC	resazurin		>100 µg/mL
CCOC(=O)c1ccc(-c2ccc(Cl)cc2)nc1C			H37Rv	MIC			>25 µg/mL
CCC(C)C(=O)N[C@H](Cc1ccccc1)C(=O)N[C@H]1C(=O)N[C@H](CC(C)C)C(=O)N[C@H](Cc2ccccc2)C(=O)N[C@@H](CC(C)C)C(=O)N[C@H]([C@@H](C)O)C(=O)N[C@@H](CO)C(=O)O[C@H]1C				MIC			12 µg/mL
Nc1nc(N)nc(-c2ccc(OCc3ccccc3Cl)cc2)n1			H37Rv	MIC	resazurin		1.57 µM
C[C@]1(COc2ccc(N3CCC(Oc4ccc(OC(F)(F)F)cc4)CC3)cc2)Cn2cc([N+](=O)[O-])nc2O1			11 strains (EMB-resistant)	MIC90			0.013 µg/mL
CCOC(=O)c1c(NC(=O)c2c(F)c(F)c(F)c(F)c2F)sc2c1CCNC2=O			ATCC35838	EC50	turbidity		0.34 µM
COc1cc(-c2nc3ccccc3[nH]2)cc(OC)c1OC			H37Rv	MIC	radiometric		>500 µM
NC(=O)c1c(N)ncn1C1COC(CO)C1O			H37Rv	MIC bound	BACTEC		>12.5 µg/mL
NNC(=O)c1ccncc1			ATCC 35338 RMPr	MIC100	resazurin		0.015 µg/mL
N/C(=N\N=C\c1ccc(Cl)cc1)c1ccncc1			Isolate 1751 ofloxacin-resistant	MIC			8 µg/mL
C1CCNCC1.S=C(S)N1CCCCC1			H37Rv	inhibition	BACTEC	128 µg/mL	100%
CCCCCCC/C=C\CCCCCCCC(=O)NN			1896-HF INHr	MIC100	resazurin		50 µg/mL
COc1ccc2cc1-c1cc(ccc1O)C[C@H]1c3cc4c(cc3CCN1C)Oc1c(OC)cc3c(c1O4)[C@H](C2)N(C)CC3			H37Rv-PZA-R ATCC 35828	MIC	resazurin		6.2 µg/mL
O=C1OC2C(O)C3CC1C2O3			H37Rv	MIC bound	BACTEC		>12.5 µg/mL
CC1(C)CC(=O)c2ccc(-c3ccc4ccccc4c3)nc2C1			H37Rv	MIC			1.56 µg/mL
Cc1ccc(NC(=O)Cc2cccs2)cc1			ATCC 27294	MIC	resazurin		100 µg/mL
CN(C)[C@@H]1C(=O)C(C(N)=O)=C(O)[C@@]2(O)C(=O)C3=C(O)c4c(O)cccc4[C@@](C)(O)[C@H]3[C@H](O)[C@@H]12				MIC			5–10 µg/mL
N/C(=N\N=C\c1ccc(Br)cc1)c1ccncc1			Isolate 1751 ofloxacin-resistant	MIC			4 µg/mL
NNC(=O)c1ccncc1		EJMCh6A MmpL3  (V684A)	H37Rv	MIC90	visual reading / absorbance		0.07 µM
CCN1CCc2c(sc(NC(=O)c3c(F)c(F)c(F)c(F)c3F)c2C(=O)NC)C1		gyrA mutant (D94N)	H37Rv	EC90	turbidity		3.8 µM
COc1cccc(COc2ccc(-c3nc(N)nc(N)n3)cc2)c1			H37Rv	MIC	resazurin		38.66 µM
COc1ccc2c3c([nH]c2c1)C1CC2C(CC(O)C(OC)C2C(=O)O)CN1CC3			H37Rv	MIC bound	BACTEC		>12.5 µg/mL
N/C(=N\N=C\c1ccccc1Cl)c1ccncc1			H37Rv	MIC			8 µg/mL
CCc1cc(C(N)=S)ccn1			H37Ra	MIC			1.25 µg/mL
N/C(=N\N=C\c1ccccc1)c1ccncc1			Isolate 1751 ofloxacin-resistant	MIC			64 µg/mL
COc1ccc2cc1-c1cc(ccc1O)C[C@H]1c3cc4c(cc3CCN1C)Oc1c(OC)cc3c(c1O4)[C@@H](C2)N(C)CC3			H37Rv	MIC	resazurin		3.1 µg/mL
COc1cc(=O)cc2n(-c3cc(OC)c(O)c(OC)c3)c3ccccc3nc1-2			H37Rv	MIC bound	BACTEC		>12.5 µg/mL
CO[C@H]1/C=C/O[C@@]2(C)Oc3c(C)c(O)c4c(O)c(c(/C=N/N5CCN(C)CC5)c(O)c4c3C2=O)NC(=O)/C(C)=C\C=C\[C@H](C)[C@H](O)[C@@H](C)[C@@H](O)[C@@H](C)[C@H](OC(C)=O)[C@@H]1C			H37Rv	EC50	resazurin / absorbance		0.55 µM
CC1(C)CCc2nc(-c3ccc4ccccc4c3)ccc2C1=O			H37Rv	MIC			1.56 µg/mL
Cc1cc2nc(CCC3CCCCC3)[nH]c2cc1C			H37Rv	MIC90	visual reading / absorbance		0.145 µM
CC1COc2c(N3CCN(C)CC3)c(F)cc3c(=O)c(C(=O)O)cn1c23			H37Ra	MIC			1 µg/mL
NC(=O)C(=S)Nc1ccccc1N			H37Rv	MIC			111 µM
O=C1NC(NNC(=O)c2ccncc2)=N/C1=C\c1ccccc1Cl			Capreomycin-resistant	MIC			≤1.56 µg/mL
CC(C)(C)c1ncc(CCCN=C(N)N)[nH]c1=O			TAC-R	MIC			1.6 µg/mL
COc1cc(-c2nc3ccccc3[nH]2)ccc1O			H37Rv	MIC	radiometric		>500 µM
O=NNc1cccc(NN=O)n1			H37Rv	MIC bound	BACTEC		>12.5 µg/mL
COc1ccc2nc(-c3ccc4c(c3)OCO4)[nH]c2c1			H37Rv	MIC	radiometric		>500 µM
Nc1nc(N)c([N+](=O)[O-])c(Nc2ccc(Br)cc2)n1			H37Rv	MIC bound	BACTEC		>12.5 µg/mL
Clc1ccc(-c2nc3ccccc3[nH]2)c(Cl)c1			H37Rv	MIC	radiometric		>500 µM
Cc1ccn2c(C(=O)NCCCC(=O)OCc3ccccc3)c(C)nc2c1			H37Rv	MIC	resazurin		5.85 µM
O=c1oc2ccccc2cc1/C=N/N1C(=S)N(c2ccccc2)C(=Nc2ccccc2)C1=Nc1ccccc1			H37Rv	inhibition	BACTEC	12.5 µg/mL	0%
C=C(CC[C@@H](C)[C@H]1CC[C@@H]2[C@H]3CC=C4C[C@@H](O)CC[C@]4(CO)[C@@H]3CC[C@@]21C)C(C)C				MIC			3.13 µg/mL
COc1cc(C2(c3ncc[nH]3)S[C@@H](c3c(/C(=N/O)C(=O)O)[nH]c4ccccc34)SC[C@H]2O)ccc1O			H37Rv	EC50			>12.5 µg/mL
CCCCCCCCCCCCCCCCC(=O)NNC(=O)c1ccncc1			ATCC 27294 H37Rv	MIC100	resazurin		0.03 µg/mL
CC(C)N=c1cc2n(-c3ccc(Cl)cc3)c3ccccc3nc-2cc1Nc1ccc(Cl)cc1			H37Rv	MIC99	broth dilution		0.25 µg/mL
COC(=O)C1=CO[C@H](C)[C@H]2CN3CCC4(C(=O)Nc5ccccc54)C3C[C@@H]12			H37Rv	MIC	BACTEC		≥12.5 µg/mL
CCn1cc(C(=O)O)c(=O)c2cc(F)c(N3CCNC(C)C3)c(F)c21			11 strains (drug-resistant)	MIC50			1 µg/mL
N[C@@H]1CONC1=O			H37Ra	MIC			50 µg/mL
CN(C)N=Nc1cn[nH]c1C(N)=O			H37Rv	inhibition	BACTEC	12.5 µg/mL	74%
C#CCn1ncc2c(SCc3ccccc3)ncnc21			H37Rv	MIC	BACTEC		12.5 µM
Cc1nc2ccccc2c(N)c1-c1cc(C)c2c(C)nc3ccccc3c2n1			H37Rv	inhibition	BACTEC	12.5 µg/mL	-18%
NC(=O)C(=S)Nc1ccc(N)cc1			H37Rv	MIC			1000 µM
CCOC(=O)c1c(C(CC)C(=O)OC(C)C)cc2n(c1=O)Cc1c-2nc2ccccc2c1Cl			H37Rv	inhibition	resazurin	6.25 µg/mL	12%
Nc1ccc(NC(=S)C(=O)Nc2ccccc2)cc1			H37Rv	MIC			222 µM
O=C1N(c2nncs2)CCN1[N+](=O)[O-]			ETA-R	MIC			6.3 µg/mL
CC1COc2c(N3CCN(C)CC3)c(F)cc3c(=O)c(C(=O)O)cn1c23			08-685	MIC	BACTEC		1 µg/mL

Repeating the first 8 entries:

SMILES | cell line | changes | strain | endpoint | method | tested at | result
CCOC(=O)C(Cc1ccccc1)NP(=O)(CCC(=O)N1C[C@H](OCC(O)P(=O)(NC(Cc2ccccc2)C(=O)OCC)NC(Cc2ccccc2)C(=O)OCC)[C@H](n2cnc3c(=O)[nH]c(N)nc32)C1)NC(Cc1ccccc1)C(=O)OCC |  |  | H37Ra | MIC90 | resazurin / fluorescence |  | 20 µM
Brc1ccc2nc(CCC3CCCCC3)[nH]c2c1 |  | 6C MmpL3 (G253E) | H37Rv | MIC90 | visual reading / absorbance |  | 22.8 µM
COc1ccc(N=Nc2c(C)c(C#N)c(=S)n([C@@H]3O[C@H](CO)[C@H](O)[C@H](O)[C@H]3O)c2C)cc1 |  |  | H37Rv | inhibition | resazurin | 6.25 µg/mL | 15%
CO[C@H]1/C=C/O[C@@]2(C)Oc3c(C)c(O)c4c(O)c(c(/C=N/N5CCN(C)CC5)c(O)c4c3C2=O)NC(=O)/C(C)=C\C=C\[C@H](C)[C@H](O)[C@@H](C)[C@@H](O)[C@@H](C)[C@H](OC(C)=O)[C@@H]1C |  |  | H37Rv | MIC |  |  | 2.5 µg/mL
O=[N+]([O-])c1ccccc1S(=O)(=O)c1ccc(Cl)cc1 |  |  | H37Rv | MIC bound | resazurin |  | >6.25 µg/mL
O=C1NC(=NCc2ccccc2)N/C1=C\c1ccc(Cl)cc1 | VERO |  | H37Rv | inhibition | resazurin | 12.5 µg/mL | 97%
CC[C@@H](CO)NCCN[C@@H](CC)CO |  |  | H37Ra | MIC |  |  | 1.88 µg/mL
COc1cc(-c2nc(N)nc(N)n2)ccc1OCc1ccc(F)cc1 |  |  | H37Rv | MIC | resazurin |  | 3.39 µM

Percent inhibition refers to the dose given; in toxicity tests it is the harm to the cells. A number after MIC or MFC names an inhibition level or a share of isolates. MIC bound: limit read from a one-dose screen. Two numbers with a dash give a range or band. Neighbouring rows are from separate reports. ECn is the concentration giving n% inhibition of infection, replication or growth.